Only a part is listed here, and it is no random draw. The source made the active and inactive calls. Calls follow the shape of the dose curve; as a rule, active = well fitted inhibition curve with a large enough effect; inconclusive = small, poorly fitted or top-dose-only effect; inactive = no such curve, though single readings can be large or run the other way.
System: Plasmodium falciparum AMA1 (3D7) - RON2 peptide interaction
Assay: qHTS for Inhibitors of AMA1-RON; Towards Development of Antimalarial Drug Lead: Primary Screen;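 also: 0% = vehicle wells and -100% = peptide control; nearly all actives have a fitted effect of over 45% in size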
Details: AlphaScreen AMA1-biotinylated RON2 peptide binding; at 58.2 µM (top of the series)

| SMILES | activity change, negative = inhibition |
| --- | --- |
| CN(C)CCOC(=O)C(O)(c1ccccc1)C1CCCC1 (configuration not stated) | inactive: 2.29% |
| O=C(OC1CN2CCC1CC2)C12CC3CC(CC(C3)C1)C2 (configuration not stated) | inactive: 4.91% |
